Pooled drug test results. Numbers come from NIAID ChemDB, via PubChem.

Common to all: tests on isolated targets; organism: HIV-1; protein: Reverse transcriptase; read-out: fold resistance

Lines come from different laboratories, so protocols vary. An empty or dashed field is not shown. a–b is a range or a potency band. Fold resistance has wild type as its base.

compound | read by | mutations | strain | value
CN(c1ncccc1CO)C1CCN(C(=O)c2cc3cc(NS(C)(=O)=O)ccc3[nH]2)CC1 | nucleotide incorporation | RT-Y181C | IIIB | ~3.5
CC(C)=CCN1Cc2cccc3[nH]c(=S)n(c23)C[C@@H]1C | nucleotide incorporation / radiometric | RT-E89G | - | 10
CCN1c2ncc(CCOc3ccc(CCC(=O)O)c4ccccc34)cc2C(=O)Nc2c(C)ccnc21 | nucleotide incorporation / radiometric | RT-V106A | - | 1–10
Cc1cn([C@@H]2O[C@H](CO[Si](C)(C)C(C)(C)C)C3(OS(=O)(=O)C=C3N)[C@H]2O[Si](C)(C)C(C)(C)C)c(=O)n(C)c1=O | RT activity | RT-V106A | IIIB | >83.3
CCN1c2ncc(CCOc3ccc(CCC(=O)O)c4ccccc34)cc2C(=O)N(C)c2ccc(C)nc21 | nucleotide incorporation / radiometric | RT-K103N Y181C | - | 1–10
CCOc1ccc(CSc2nc(Cc3c(Cl)cccc3Cl)c(C)c(=O)[nH]2)cc1 | nucleotide incorporation / radiometric | RT-K103N | - | >200
O=P(O)(O)OP(=O)(O)O | - | RT-Q161L | - | 2.1
O=C(Nc1nnc(-c2ccc3c(c2)CCCC3)o1)C1=COCCO1 | RT activity / nucleotide incorporation / luminescence | K103N/Y181C | NL4-3 | 10
O=c1c2cccn2c2ccccc2n1CCNC(=S)Nc1ccc(Br)cn1 | nucleotide incorporation | RT-Y181I | - | 69
Cc1cn([C@H]2C=C[C@@H](COP(=O)(O)OP(=O)(O)OP(=O)(O)O)O2)c(=O)[nH]c1=O | - | RT-M184V | - | 38.46
CN(C)C(=O)Oc1nsnc1-c1c(Cl)cccc1Cl | nucleotide incorporation | RT-Y181C | IIIB-R (RT-Y181C) | >39.2
CC[C@]1(c2ccccc2)Oc2cccnc2-n2cccc2C1=O | nucleotide incorporation / radiometric | RT-K103N | - | 8
CCN1c2ncc(CNc3cccc([N+](=O)[O-])c3)cc2C(=O)N(C)c2ccc(Cl)nc21 | nucleotide incorporation / radiometric | RT-Y181C | - | 1.19
CC(C)=CCN1C(C)C(=O)Nc2ccc(Cl)cc2S1(=O)=O | RT activity | RT-Y181C | IIIB | 9.09
Cc1cc(C)cc(S(=O)(=O)c2c(C(=O)NNCCO)[nH]c3ccc(Cl)cc23)c1 | nucleotide incorporation / radiometric | RT-Y188L | - | >666
CCN1c2ncc(CCOc3ccc(/C(C)=C/C(=O)O)c4ccccc34)cc2C(=O)N(C)c2cccnc21 | nucleotide incorporation / radiometric | RT-Y188L | - | >10
NC(=O)OCc1cn(Cc2ccncc2)c(Sc2cc(Cl)cc(Cl)c2)c1C1CCC1 | nucleotide incorporation / radiometric | RT-K103N | - | 1890
Nc1ncnc2c1ncn2[C@H]1CC[C@@H](COP(=O)(O)OP(=O)(O)OP(=O)(O)O)O1 | ELISA | RT-L74V | - | 2.49
CCc1cc(CCc2nc3c(Cl)ccc(Cl)c3o2)c(=O)[nH]c1C | nucleotide incorporation | RT-K103N | - | 18
CCN1c2ncc(CCOc3ccc(/C=C(\C)C(=O)O)c4ccccc34)cc2C(=O)Nc2c(C)cc(F)nc21 | nucleotide incorporation / radiometric | RT-Y188L | - | >10
Cc1c(Sc2ccccc2)n(COCCO)c(=O)[nH]c1=O | - | RT-Y181I | - | 8
Cc1c(Cc2c(Cl)cccc2Cl)nc(SCc2ccc(O)cc2)[nH]c1=O | nucleotide incorporation / radiometric | RT-K103N | - | ~1
CCCCCCN(C)C(=O)Oc1nsnc1-c1c(Cl)cccc1Cl | nucleotide incorporation | RT-Y181C | IIIB-R (RT-Y181C) | >21.1
Nc1nc2c(ncn2[C@H]2C=C[C@@H](COP(=O)(O)OP(=O)(O)OP(=O)(O)O)C2)c(=O)[nH]1 | - | RT-M184V | - | 1.47
CCc1c(Sc2ccccn2)n(COCc2ccccc2)c(=O)[nH]c1=O | - | RT-Y181C | - | >7
CCN1c2ncc(COc3cc[n+]([O-])c(C(F)(F)F)c3)cc2C(=O)N(C)c2ccc(Cl)nc21 | nucleotide incorporation / radiometric | RT-Y181C | - | 1.07
Cc1ccc2c(c1)n(CCNC(=S)Nc1ccc(Br)cn1)c(=O)c1cccn12 | nucleotide incorporation | RT-V106A | - | 4
Cc1c(Sc2ccccc2)n(COCCO)c(=O)[nH]c1=O | nucleotide incorporation | RT-T139I N348K | - | 3.33
OCc1cn(Cc2ccncc2)c(Sc2cc(Cl)cc(Cl)c2)c1C1CCC1 | nucleotide incorporation / radiometric | RT-Y181I | - | 130
Cc1c(Cc2c(F)cccc2F)nc(SCc2ccc(C#N)cc2)[nH]c1=O | nucleotide incorporation / radiometric | RT-K103N | - | >526
Cc1cn([C@H]2C=C[C@@H](COP(=O)(O)OP(=O)(O)OP(=O)(O)O)O2)c(=O)[nH]c1=O | RT activity | RT-Y181I | - | 4.5
Nc1ccn([C@H]2CC[C@@H](COP(=O)(O)OP(=O)(O)OP(=O)(O)O)O2)c(=O)n1 | ELISA | RT-T215Y K219Q | - | 0.89
C#C[C@]1(COP(=O)(O)OP(=O)(O)OP(=O)(O)O)CC[C@@H](n2ccc(N)nc2=O)O1 | nucleotide incorporation / radiometric | RT-M184V | - | >5
COc1ccc(/C=C/NC(=O)Nc2ccc(Cl)cn2)cc1OC | nucleotide incorporation | RT-L100I | - | 1.43
Nc1ncnc2c1ncn2[C@@H]1O[C@H](COP(=O)(O)OP(=O)(O)OP(=O)(O)O)C[C@@H]1F | nucleotide incorporation | RT-A62V V75I F77L F116Y Q151M | - | 2.7
O=c1cnc2ccccc2n1CCNC(=S)Nc1ccc(Br)cn1 | nucleotide incorporation | RT-Y188L | - | 4
CC(C)=CCN1C(=O)Nc2ccc(Cl)cc2S1(=O)=O | RT activity | RT-Y181C | IIIB | 3.7
Nc1ncnc2c1ncn2[C@H]1CC[C@@H](COP(=O)(O)OP(=O)(O)OP(=O)(O)O)O1 | nucleotide incorporation | RT-A62V V75I F77L F116Y Q151M | - | 8.8
CCN1c2ncc(CS(=O)(=O)c3ccccc3)cc2C(=O)N(C)c2ccc(Cl)nc21 | RT activity | RT-Y188L | - | 110
CNC(=O)Nc1ccc2[nH]c(C(=O)N3CCC(N(C)c4ncccc4NC(C)C)CC3)cc2c1 | nucleotide incorporation | RT-P236L | IIIB | 0
Cc1cc(SC2=C(O)CC(CCc3ccc(O)cc3)(C3CCCCC3)OC2=O)c(C(C)(C)C)cc1CO | HPLC / absorbance | RT-I84V | - | 20
CCc1cc(CCc2nc3ccccc3o2)c(=S)[nH]c1C | nucleotide incorporation | RT-K103N Y181C | - | 400
Cc1c(Cc2c(Cl)cccc2Cl)nc(S(=O)(=O)Cc2ccc([N+](=O)[O-])cc2)[nH]c1=O | nucleotide incorporation / radiometric | RT-K103N | - | ~1
CC(C)=CCN1C(=O)c2cccn2-c2ccc(Cl)cc2S1(=O)=O | RT activity | RT-L100I | IIIB | 21.4
Cc1cn([C@@H]2O[C@H](CO[Si](C)(C)C(C)(C)C)C3(OS(=O)(=O)C=C3N)[C@H]2O[Si](C)(C)C(C)(C)C)c(=O)n(C)c1=O | - | RT-E138K | - | 38.5
CCc1c([Se]c2ccccn2)n(COCc2ccccc2)c(=O)[nH]c1=O | RT activity | RT-T181C | - | 34
CC(C)=CCOc1cc(NC(=S)c2ccoc2C)ccc1Cl | - | RT-K103N | - | 6.97
O=c1c2cccn2c2cc(Cl)c(Cl)cc2n1CCNC(=S)Nc1ccc(Br)cn1 | nucleotide incorporation | RT-V106A | - | 1
CCN1c2ncc(Cc3cccc(O)c3)cc2C(=O)N(C)c2ccc(Cl)nc21 | nucleotide incorporation / radiometric | RT-Y181C | - | 1.13
Nc1ccn([C@H]2CC[C@@H](COP(=O)(O)OP(=O)(O)OP(=O)(O)O)O2)c(=O)n1 | nucleotide incorporation | RT-L74V T215Y | HXB2 | 14.7
CC(C)=CCN1Cc2cccc3[nH]c(=S)n(c23)C[C@@H]1C | RT activity | RT-T181C | - | 17

Again, the opening 4 rows:

{"compound": "CN(c1ncccc1CO)C1CCN(C(=O)c2cc3cc(NS(C)(=O)=O)ccc3[nH]2)CC1", "read by": "nucleotide incorporation", "mutations": "RT-Y181C", "strain": "IIIB", "value": "~3.5"}
{"compound": "CC(C)=CCN1Cc2cccc3[nH]c(=S)n(c23)C[C@@H]1C", "read by": "nucleotide incorporation / radiometric", "mutations": "RT-E89G", "value": "10"}
{"compound": "CCN1c2ncc(CCOc3ccc(CCC(=O)O)c4ccccc34)cc2C(=O)Nc2c(C)ccnc21", "read by": "nucleotide incorporation / radiometric", "mutations": "RT-V106A", "value": "1–10"}
{"compound": "Cc1cn([C@@H]2O[C@H](CO[Si](C)(C)C(C)(C)C)C3(OS(=O)(=O)C=C3N)[C@H]2O[Si](C)(C)C(C)(C)C)c(=O)n(C)c1=O", "read by": "RT activity", "mutations": "RT-V106A", "strain": "IIIB", "value": ">83.3"}